Results of unrelated studies side by side (data: NIAID ChemDB).

Shared fields: whole-cell or culture tests; agent: Poliovirus; strain: TYPE 1; cell line: HeLa; endpoint: EC50

Lines come from different laboratories, so protocols vary.

Nc1nccc2c1ncn2[C@@H]1C[C@H](CO)[C@@H](O)[C@H]1O ; result: >400 µg/mL
Nc1nccc2c1ncn2[C@@H]1C=C(CO)[C@@H](O)[C@H]1O ; result: >400 µg/mL
Nc1nccc2c1ncn2[C@@H]1C[C@H](CO)[C@@H](O)[C@H]1O ; result: >400 µg/mL
Nc1nc2c(ncn2C[C@H]2CC[C@@H](CO)C2)c(=O)[nH]1 ; result: >200 µg/mL
Cc1cn([C@@H]2C[C@H](CO)[C@@H](O)C2)c(=O)[nH]c1=O ; result: 100 µg/mL
CC(C)[Si]1(C(C)C)OC[C@H]2O[C@@H](n3cnc4cc(Cl)c(Cl)cc43)[C@@H](O)[C@H]2O[Si](C(C)C)(C(C)C)O1 ; result: >400 µg/mL
NC(=O)c1ncn([C@@H]2O[C@H](CO)[C@@H](O)[C@H]2O)c1C#CCO ; result: >400 µg/mL
Nc1nc(Cl)c2ncn(C[C@H]3CC[C@@H](CO)C3)c2n1 ; result: >10 µg/mL
Nc1ncnc2c1c(Br)cn2[C@@H]1O[C@H](CO)[C@@H](O)[C@H]1O ; result: 0.007 µg/mL
OC[C@H]1O[C@H](n2cnc3cc(Cl)c(Cl)cc32)[C@@H](O)[C@H]1O ; result: >200 µg/mL
Nc1nc(N)c2ncn(C[C@H]3CC[C@@H](CO)C3)c2n1 ; result: >200 µg/mL
NC(=O)c1ncn([C@@H]2O[C@H](CO)[C@@H](O)[C@H]2O)c1C#Cc1ccccc1 ; result: >400 µg/mL
Nc1ncnc2c1ncn2[C@@H]1C=C[C@@H](O)[C@H]1O ; result: >400 µg/mL
OCCOC([C@H](O)CO)n1cnc2cc(Cl)c(Cl)cc21 ; result: >200 µg/mL
Nc1ncnc2c1ncn2C[C@@H](O)[C@H](O)C(=O)O ; result: >400 µg/mL
Nc1nccc2c1ncn2[C@@H]1C[C@H](CO)[C@@H](O)[C@H]1O ; result: >400 µg/mL
NC(=O)c1ncn([C@@H]2O[C@H](CO)[C@@H](O)[C@H]2O)n1 ; result: >400 µg/mL
Nc1ncnc2c1ncn2[C@@H]1C[C@H](CO)[C@@H](O)C1 ; result: 100 µg/mL
NC(=O)c1ccnc([C@@H]2O[C@H](CO)[C@@H](O)[C@H]2O)c1 ; result: >400 µg/mL
Cc1cn([C@H]2C[C@@H]3OC[C@H]2[C@@H]3CO)c(=O)[nH]c1=O ; result: 400 µg/mL
CC(C)[Si]1(C(C)C)OC[C@H]2O[C@@H](n3cnc4cc(Cl)c(Cl)cc43)[C@H](O)[C@H]2O[Si](C(C)C)(C(C)C)O1 ; result: >10 µg/mL
Cc1cn([C@H]2C[C@@H](CO)[C@H](O)C2)c(=O)[nH]c1=O ; result: 100 µg/mL
Nc1nccc2c1ncn2[C@@H]1C[C@H](CO)[C@@H](O)[C@H]1O ; result: >400 µg/mL
Nc1ncnc2c1ccn2[C@@H]1O[C@H](CO)[C@@H](O)[C@H]1O ; result: 0.2 µg/mL
C[C@H]1C[C@@H](n2cnc3c(N)ncnc32)[C@H](O)[C@@H]1O ; result: >200 µg/mL
Nc1ncnc2c1ncn2C1CC(CO)[C@@H](O)[C@H]1O ; result: ≥10 µg/mL
Nc1nc2c(nnn2C[C@H]2CC[C@@H](CO)C2)c(=O)[nH]1 ; result: >200 µg/mL
OC[C@H]1O[C@@H](n2cnc3cc(Cl)c(Cl)cc32)[C@@H](O)[C@H]1O ; result: >100 µg/mL

2 of the rows above, restated:

| structure | result |
|---|---|
| CC(C)[Si]1(C(C)C)OC[C@H]2O[C@@H](n3cnc4cc(Cl)c(Cl)cc43)[C@H](O)[C@H]2O[Si](C(C)C)(C(C)C)O1 | >10 µg/mL |
| Nc1ncnc2c1ccn2[C@@H]1O[C@H](CO)[C@@H](O)[C@H]1O | 0.2 µg/mL |

ECn: concentration that inhibits the pathogen or its effect by n%.